We go through three compounds from patent publication US20230192660A1 (priority 2020, published 2023).

The assay concerns the target SARS-CoV-2 Mpro C145A mutant (Severe acute respiratory syndrome coronavirus 2, UniProt P0DTD1, C3408A). The experiment in a line: Differential scanning fluorometry, melting temperature of inactive Mpro C145A. The note with it: 3 μM Mpro C145A, 30 μM compound. Type of assay: binding. For orientation: Differential scanning fluorimetry follows unfolding on heating by fluorescence.
As for `CC1(C)[C@@H]2[C@@H](C(=O)N[C@@H](C[C@@H]3CCNC3=O)C(=O)C(N)=O)N(C(=O)OCc3ccccc3)C[C@@H]21`, the “ΔTm Mpro C145A” value amounted to 0 °C. `CC(C)(C)C(=O)N[C@H](C(=O)N1C[C@H]2[C@@H]([C@H]1C(=O)N[C@@H](C[C@@H]1CCNC1=O)C(=O)C(N)=O)C2(C)C)C(C)(C)C`: the “ΔTm Mpro C145A” value came to 0.1 °C. On to `CC(C)(C)NC(=O)N[C@H](C(=O)N1C[C@@H]2CCC[C@@H]2[C@H]1C(=O)N[C@@H](C[C@@H]1CCNC1=O)C(=O)C(N)=O)C(C)(C)C`, for which the “ΔTm Mpro C145A” value amounted to 0 °C.
